Measurements taken from publication PMC10713766.

System: N[C@@H](CC(=O)O)C(=O)O
Experiment: purified protein
Settings: pH 7.0; 25.0 °C

## YPO0623 (Yersinia pestis)
  Km: 2.13 µM
